Tested on: H5N1 (avian) influenza virus
Experiment: In vitro cell infection assay in MDCK cells, H5N1 (ELISA)
Conditions: 0.8 μg/ml

Cl[TeH]1(Cl)(Cl)OCCO1 [AS101, ammonium trichloro(dioxyethylene-O,O′)tellurate]
H5N1 virus infection, each tested administration time (24 hours before, concomitantly with, or 24 hours after infection, ELISA 72 hours post-infection): inhibition
H5N1 virus infection, administered concomitantly with the virus (compared with the other administration times): strongest inhibition
